Measured data: PubChem BioAssay AID504761 (Drosophila RNAi Screening Center, 2011)
Assay: 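Genome-wide fly cell screen for genes dengue virus requires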 (primary screen). Cells: D.Mel-2 cells from Drosophila. Knock-down reagent: long dsRNA against Drosophila genes. Conditions: infection with dengue virus type 2; dose and infection time not stated. Measured: 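Per well on two replicate plates, imaging gave the percent of cells positive for viral envelope protein, ranked by infection, and a nuclear count of cells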. Direction: infection score: higher = more virus-infected cells; cell count: higher = more cells in the well. Active means: 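Low infection ranks in the two replicates (chance level up to 0.065) followed by a retest with a 1.5-fold or larger significant decrease, p below 0.05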. Meaning of the calls: active = confirmed: knock-down lowers infection; inactive = not picked or not confirmed.
In all, the deposit lists about 22,000 reagents; below is an unselected part of those with a known target gene and a result. Of all reagents, 116 (0.52%) got an active call. 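Calls depend on retest data that are not deposited; infection was ranked per plate without normalising between plates; the unit of the infection score is not given.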 Raw values are not corrected between plates. A plus sign joins genes that one reagent is predicted to hit. Not stated in the record: the amount of reagent, the time to read-out.

| predicted target | PubChem SID | infection score, replicate 1 | infection score, replicate 2 | cell count, replicate 1 | cell count, replicate 2 | Outcome |
| --- | --- | --- | --- | --- | --- | --- |
| Hsp70Bc (Heat shock protein 70 Bc) | SID104195845 | 2.17 | 3.28 | 6400 | 6255 | inactive |
| CG11779 | SID104194176 | 13.5 | 3.73 | 5069 | 5901 | inactive |
| CG42784 | SID104182326 | 21.9 | 22.7 | 5831 | 5691 | inactive |
| CG42784 | SID104202163 | 0.58 | 12.5 | 5886 | 6358 | inactive |
| CG42784 | SID104202357 | 1.18 | 6.25 | 5159 | 5823 | inactive |
| CG42784 | SID104204359 | 5.38 | 3.39 | 6099 | 6280 | inactive |
| CG42784 | SID104208275 | 13.3 | 5.18 | 6427 | 6371 | inactive |
| CG3927 + nsr | SID104205811 | 10.1 | 7.45 | 4689 | 6483 | inactive |
| CG8046 | SID104186851 | 6.58 | 7.42 | 6672 | 6320 | inactive |
| TfIIA-S (Transcription-factor-IIA-S) | SID104196675 | 0.4 | 1.68 | 5309 | 5666 | inactive |
| CG32318 + Klp61F + Psf1 | SID104202612 | 1.28 | 3.24 | 6573 | 5717 | inactive |
| spin (spinster) | SID104186968 | 4.25 | 4.59 | 5622 | 6870 | inactive |
| spin (spinster) | SID104201791 | 5.43 | 2.45 | 6238 | 6660 | inactive |
| sut3 (sugar transporter 3) | SID104187494 | 22.6 | 20.2 | 5766 | 4271 | inactive |
| sut3 (sugar transporter 3) | SID104203139 | 1.08 | 3.72 | 6376 | 6211 | inactive |
| CG17601 | SID104200431 | 7.79 | 3.19 | 5558 | 5646 | inactive |
| Tsc1 | SID104196682 | 2.65 | 2.82 | 4905 | 5364 | inactive |
| Tsc1 | SID104206187 | 25.9 | 28.9 | 4785 | 4635 | inactive |
| GstO1 (Glutathione S transferase O1) | SID104190480 | 1.57 | 3.61 | 5779 | 6476 | inactive |
| GstO1 (Glutathione S transferase O1) | SID104204608 | 7.62 | 0.55 | 6510 | 6031 | inactive |
| Obp56i (Odorant-binding protein 56i) | SID104185604 | 0.7 | 2.09 | 6387 | 6329 | inactive |
| BBS8 (Bardet-Biedl syndrome 8) | SID104180152 | 16.5 | 9.17 | 6364 | 7013 | inactive |
| BBS8 (Bardet-Biedl syndrome 8) | SID104206302 | 33.6 | 33.1 | 4920 | 4889 | inactive |
| CG1265 | SID104188080 | 3.78 | 6.78 | 6270 | 5429 | inactive |
| Task6 (TWIK-related acid-sensitive K[+] channel 6) | SID104196322 | 1.24 | 10.7 | 5967 | 6291 | inactive |
| CG34133 | SID104196111 | 1.51 | 4.88 | 6158 | 6368 | inactive |
| CG34133 | SID104201766 | 3.04 | 8.31 | 6708 | 6514 | inactive |
| CG34133 | SID104204202 | 2.28 | 5.8 | 6584 | 6116 | inactive |
| CG34133 | SID104207952 | 3.36 | 13.8 | 655 | 2936 | inactive |
| mat (materazzi) | SID104188168 | 2.95 | 2.54 | 6227 | 5949 | inactive |
| mat (materazzi) | SID104202200 | 0.5 | 18.8 | 5192 | 4826 | inactive |
| mat (materazzi) | SID104205754 | 6.38 | 2.69 | 6189 | 6271 | inactive |
| CG3587 | SID104198333 | 5.86 | 18.1 | 5546 | 5320 | inactive |
| CG3587 | SID104201577 | 12.6 | 23.1 | 7246 | 3284 | inactive |
| Naa20B (N(alpha)-acetyltransferase 20 B) | SID104201185 | 2.54 | 5.41 | 5668 | 1831 | inactive |
| Naa20B (N(alpha)-acetyltransferase 20 B) | SID104205702 | 9.39 | 14.3 | 6539 | 6809 | inactive |
| CG1344 | SID104184629 | 21.6 | 39.2 | 6410 | 5816 | inactive |
| Naa80 (N(alpha)-acetyltransferase 80) | SID104196221 | 1.94 | 10.3 | 6918 | 6620 | inactive |
| Naa80 (N(alpha)-acetyltransferase 80) | SID104206582 | 16.2 | 20.7 | 5757 | 5723 | inactive |
| AsnRS-m (Asparaginyl-tRNA synthetase, mitochondrial) | SID104186802 | 5.46 | 12.3 | 6504 | 4038 | inactive |
| Cpsf5 (Cleavage and polyadenylation specific factor 5) | SID104190166 | 7.92 | 5.47 | 6033 | 5392 | inactive |
| Cpsf5 (Cleavage and polyadenylation specific factor 5) | SID104205995 | 8.87 | 16.9 | 5679 | 7176 | inactive |
| Fur2 (Furin 2) | SID104199609 | 6.81 | 9.4 | 6730 | 6407 | inactive |
| p115 | SID104198605 | 16.5 | 20.6 | 5859 | 4963 | inactive |
| CG14297 | SID104194568 | 10.5 | 0.57 | 4952 | 6148 | inactive |
| CG13097 | SID104181991 | 28.8 | – | 4036 | 488 | inactive |
| CG31870 | SID104201362 | 2.07 | 2.43 | 5790 | 6427 | inactive |
| CG31870 | SID104206382 | 13.8 | 35.9 | 3238 | 5910 | inactive |
| CG17199 | SID104194984 | 1.48 | 5.23 | 6429 | 3845 | inactive |
| CG44837 | SID104189925 | 2.79 | 3.07 | 5521 | 5665 | inactive |
| CG44837 | SID104190350 | 1.69 | 1.27 | 6172 | 6551 | inactive |
| CG44837 | SID104203608 | 3.42 | 10.2 | 6089 | 6217 | inactive |
| CG4615 | SID104197283 | 0.1 | 0.18 | 6794 | 6815 | inactive |
| CG4615 | SID104198168 | 6.08 | 9.1 | 6165 | 5747 | inactive |
| CG4615 | SID104205266 | 3.76 | 13.8 | 7075 | 6275 | inactive |
| CG5177 | SID104182616 | 2.56 | 1.54 | 6049 | 6709 | inactive |
| eIF2Bepsilon (eukaryotic translation initiation factor 2B subunit epsilon) | SID104198561 | 7.31 | 4.77 | 5526 | 440 | inactive |
| CG3860 | SID104184217 | 17.4 | – | 6361 | – | inactive |

8 successive records already listed:
| predicted target | PubChem SID | infection score, replicate 1 | infection score, replicate 2 | cell count, replicate 1 | cell count, replicate 2 | Outcome |
| --- | --- | --- | --- | --- | --- | --- |
| CG44837 | SID104190350 | 1.69 | 1.27 | 6172 | 6551 | inactive |
| CG44837 | SID104203608 | 3.42 | 10.2 | 6089 | 6217 | inactive |
| CG4615 | SID104197283 | 0.1 | 0.18 | 6794 | 6815 | inactive |
| CG4615 | SID104198168 | 6.08 | 9.1 | 6165 | 5747 | inactive |
| CG4615 | SID104205266 | 3.76 | 13.8 | 7075 | 6275 | inactive |
| CG5177 | SID104182616 | 2.56 | 1.54 | 6049 | 6709 | inactive |
| eIF2Bepsilon (eukaryotic translation initiation factor 2B subunit epsilon) | SID104198561 | 7.31 | 4.77 | 5526 | 440 | inactive |
| CG3860 | SID104184217 | 17.4 | – | 6361 | – | inactive |
